Experimental data reported in PMC11271582, “Pan-serotype dengue virus inhibitor JNJ-A07 targets NS4A-2K-NS4B interaction with NS2B/NS3 and blocks replication organelle formation” (Nature Communications, 2024).

Molecular target: NS4A-2K-NS4B-HA mutant CS P1’Ile (NS4A-2K cleavage site blocked) (DENV (strain not stated for this construct))
Assay: co-IP

Substance: DENV NS2B/NS3 protease/helicase complex (active protease), stably expressed (from UniProt P29990)
- EC50 of the small molecule JNJ-A07 for reducing this co-precipitation: 3.3 nM
